Measurements from “University of Dundee, Small-Polar-MMV Screening Library” (2021), ChEMBL document CHEMBL3988442.

Mtb glucose medium: 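Growth of Mycobacterium tuberculosis over 3 days (7H9 medium with glucose and tyloxapol); the read-out is not stated. Concentration: 50 µM. Direction is inferred from retests: higher values go with more growth inhibition. About 69,000 compounds were tested under these conditions; 1.1% (about 760) showed 50% or more at least once.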
Mtb cholesterol medium: 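Whole-cell growth test on Mycobacterium tuberculosis, read after 4 days in a medium based on cholesterol and the lipid DPPC; the read-out is not stated. Tested at 50 µM. Direction is inferred from retests: higher values go with more growth inhibition. Size under these conditions: about 69,000 compounds, about 370 of them at 50% or above in at least one test.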

Results are given as percent effect. How 0% and 100% were set is not recorded. Most values in the screen are low, and negative values occur. The entries come from a sample that favours strong results. Two or more numbers in one place are separate tests of the same structure; such repeats can differ widely. A dash means the value is not listed here; it may have been measured.

Compound | Mtb glucose medium | Mtb cholesterol medium
CC(=O)N1CCCN(Cc2cc(F)cc(Br)c2)CC1 | -23.31% | -
O=C1N(Cc2ccc(F)c(F)c2)CCCC1(O)CNCC1CCCCC1 (centres unmarked) | 17.97% | -
COc1ccc(CCCC(=O)N2CCCC(n3cccn3)C2)cc1 (centres unmarked) | -20.74% | -
CN(Cc1cccc(-n2cccn2)c1)Cc1cccs1 | 8.374% | 13.67% & 28.62%
O=C(Cn1cc(Cl)cn1)Nc1ccc2c(c1)OCCCO2 | -2.336% | -14.07%
O=C(CN1CCCC(c2ccn[nH]2)C1)Nc1nc2c(s1)CCCC2 (centres unmarked) | 50.22% | 16.25%
C1CCC(NC2CCCN(Cc3noc(C4CC4)n3)C2)C1 (centres unmarked) | 3.983% & 5.813% | -
COc1ccnc(CN2CCCC(CCc3ccccc3)C2)c1OC (centres unmarked) | 18.91% & 15.41% | -
COCCn1ccc2c(NC(=O)c3n[nH]c4c3CCC4)cccc21 | 50.63% | -
Cc1ccc2oc(N3CCN(CC(=O)NC(C)C)CC3)nc2c1 | 6.792% | -
c1ccc(Cc2noc(CN3CCCCC3Cn3cncn3)n2)cc1 (centres unmarked) | -38.87% | -
Cc1cc2c(N)nc(=O)n(CC(=O)Nc3cccc(Cl)c3)c2s1 | 51.59% | -
CN(C)S(=O)(=O)c1ccc(CN2CCC(c3ccccc3)C2)o1 (centres unmarked) | 6.935% & 13.68% | -
Cc1ccc(NC(=O)NCC2CCS(=O)(=O)C2)cc1Cl (centres unmarked) | 14.05% | -17.81% & -2.976%
O=C(COCc1nc(-c2ccncc2)no1)N1CCCCC1 | 35.85% | -
O=C(NC1CCCN(CCCc2ccccc2)C1)C1=CCCCC1 (centres unmarked) | 30.89% | 19.32%
Cc1ccc(S(=O)(=O)N(C)Cc2cnccn2)cc1N(C)C | - | -9.847%
N#CCCN(Cc1ccco1)C(=O)CCCc1ccccc1 | - | 0.7005%
Cc1n[nH]c(SCC(=O)NC(c2ccncc2)C(C)C)n1 (centres unmarked) | 11.88% | -3.693%
c1ccc(CN2CCN(c3ccc4nncn4n3)CC2)nc1 | 27.9% | -
COc1ccccc1CC(=O)NS(=O)(=O)c1ccc(C(N)=O)cc1 | 25.01% | -
COc1ccc(CN(C(=O)C2CCOCC2)c2ccncc2)cc1 | 9.496% & 7.038% | -2.895%
Cc1noc(C)c1CNCC1COCc2c(-c3ccoc3)nnn2C1.O=C(O)C(F)(F)F (centres unmarked) | 24.42% | -
O=C(c1cc(-c2ccco2)cs1)N1CCOCC1 | -0.1406% | -
COc1ccccc1CNCc1nn(-c2ccccc2)c2c1CCC2 | 53.06% | -
O=C(CCC1CCCO1)NCc1ccnc(-n2cccn2)c1 (centres unmarked) | -33.54% | -
CCCn1nc(C(=O)N(C)Cc2cnn(C)c2)ccc1=O | 23.35% | -
O=C(COCc1ccccc1)N1CCCC(n2cncn2)C1 (centres unmarked) | -15.36% | -
COc1cc2c(cc1CNC(Cc1cccs1)c1nccs1)OCO2.Cl (centres unmarked) | 3.753% | 30.43% & 42.41%
Cc1cnn(CCNCc2ccccc2F)c1 | 27.66% | -
O=C(C[S+]([O-])Cc1cccc(Cl)c1)NC1CCCC1 (centres unmarked) | 12.01% | -0.01221%
NC(=O)CN1CCOCC(Cc2ccccc2)C1 (centres unmarked) | -4.841% | -
O=C(NC[C@H]1CC[C@H](c2ccnc3ncnn32)CC1)C1CC1 | 68.63% | -
O=C(c1ccc(NCc2cccc(F)c2)cc1)N1CCCC1 | - | 50.58%
CCOc1cc2c(cc1CNC(Cc1cccs1)c1nccs1)OCO2.Cl (centres unmarked) | - | 10.55% & 14.23%
Cc1nnc(NCc2ccc(Br)cc2)o1 | -1.768% & 3.046% | -
Cc1ccc(N2CCOCC3(CCCN(c4ncc(F)cn4)C3)C2)nn1 (centres unmarked) | 10.87% | -
NCC1CCN(c2nc(C3CCCC3)nc3c2CCNCC3)C1 (centres unmarked) | 37.66% | -
Cc1cc(C)n(C2CCCN(C(=O)Cc3csc(C)n3)C2)n1 (centres unmarked) | -7.748% | -
NC(=O)NC(=O)CN1CCN(c2nccs2)CC1 | 15.63% | -
c1ccc(OCCCN2CCN(c3ccc4nncn4n3)CC2)cc1 | 51.24% | -
COC[C@@H]1CCC[C@@]12CN(C(=O)N1CCCC1)CCO2 | 52.26% | -
CC(C)C(O)C1CCN(c2ccnc(C(=O)NCc3ccco3)c2)CC1 (centres unmarked) | 18.54% | -
Cc1nc(C)c2c(n1)CCN(Cc1ccco1)CC2 | -4.32% & -1.183% | -10.33%
COc1cccc(Nc2nc(-c3ccncc3)nc3c2CNCC3)c1.Cl | 7.183% | -29.19%
COCC(=O)N(C)Cc1ccc(Cl)c(Cl)c1 | 6.53% & -1.421% | 6.161%
CC(CNC(=O)c1cnccn1)Oc1cccc(Br)c1 (centres unmarked) | 67% | 47.18% & 47.04%